Measurements from article PMC9876794 (2022).

Molecular target: SARS-CoV-2 spike RBD (WT) (Severe acute respiratory syndrome …)
Experiment: ELISA
Parameters: unit not given here

B1: D169 (antibody, V domains shown)
VH: QVQLVQSGAEVKKPGASVKVSCKASGYTFTGYYMHWVRQAPGQGLEWMGRINPNSGGTNYAQKFQGRVTMTRDTSISTAYMELSRLRSDDTAVYYCARDLFPHWYFDLWGRGTLVTVSS
VL: [about 100 residues not shown]TFGQGTKVEIK
binding score: > 10000
